Experimental data reported in patent US10221144B2, “Antibacterial compounds having broad spectrum of activity” (priority 2014, dated 2019).

By UniProt entry, the sequences of proteins in these tests, tags left out.
UniProt P0AES4, whole entry: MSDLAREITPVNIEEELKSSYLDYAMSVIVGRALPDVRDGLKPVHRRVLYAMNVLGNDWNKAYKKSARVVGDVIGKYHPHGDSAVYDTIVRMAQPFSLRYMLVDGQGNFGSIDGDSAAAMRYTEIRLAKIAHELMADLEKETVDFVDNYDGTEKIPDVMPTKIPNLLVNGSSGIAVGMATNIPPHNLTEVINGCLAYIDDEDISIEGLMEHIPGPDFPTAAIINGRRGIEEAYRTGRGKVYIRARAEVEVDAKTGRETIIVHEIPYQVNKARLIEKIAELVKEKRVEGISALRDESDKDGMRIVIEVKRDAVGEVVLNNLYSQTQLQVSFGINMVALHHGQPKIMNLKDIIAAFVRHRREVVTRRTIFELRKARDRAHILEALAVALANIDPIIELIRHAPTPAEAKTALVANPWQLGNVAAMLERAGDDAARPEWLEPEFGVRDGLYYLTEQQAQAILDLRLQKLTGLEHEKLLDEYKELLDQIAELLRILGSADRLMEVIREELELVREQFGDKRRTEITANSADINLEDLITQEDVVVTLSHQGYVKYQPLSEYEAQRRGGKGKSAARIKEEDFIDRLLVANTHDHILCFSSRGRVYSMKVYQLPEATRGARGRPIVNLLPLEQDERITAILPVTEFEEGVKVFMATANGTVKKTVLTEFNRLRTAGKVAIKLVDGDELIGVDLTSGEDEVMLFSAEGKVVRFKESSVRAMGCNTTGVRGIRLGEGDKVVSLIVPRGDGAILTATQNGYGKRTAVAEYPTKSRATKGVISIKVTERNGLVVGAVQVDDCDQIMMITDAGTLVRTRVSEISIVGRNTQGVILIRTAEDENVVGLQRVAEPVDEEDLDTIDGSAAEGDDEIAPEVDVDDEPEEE
UniProt P0AFI2, whole entry: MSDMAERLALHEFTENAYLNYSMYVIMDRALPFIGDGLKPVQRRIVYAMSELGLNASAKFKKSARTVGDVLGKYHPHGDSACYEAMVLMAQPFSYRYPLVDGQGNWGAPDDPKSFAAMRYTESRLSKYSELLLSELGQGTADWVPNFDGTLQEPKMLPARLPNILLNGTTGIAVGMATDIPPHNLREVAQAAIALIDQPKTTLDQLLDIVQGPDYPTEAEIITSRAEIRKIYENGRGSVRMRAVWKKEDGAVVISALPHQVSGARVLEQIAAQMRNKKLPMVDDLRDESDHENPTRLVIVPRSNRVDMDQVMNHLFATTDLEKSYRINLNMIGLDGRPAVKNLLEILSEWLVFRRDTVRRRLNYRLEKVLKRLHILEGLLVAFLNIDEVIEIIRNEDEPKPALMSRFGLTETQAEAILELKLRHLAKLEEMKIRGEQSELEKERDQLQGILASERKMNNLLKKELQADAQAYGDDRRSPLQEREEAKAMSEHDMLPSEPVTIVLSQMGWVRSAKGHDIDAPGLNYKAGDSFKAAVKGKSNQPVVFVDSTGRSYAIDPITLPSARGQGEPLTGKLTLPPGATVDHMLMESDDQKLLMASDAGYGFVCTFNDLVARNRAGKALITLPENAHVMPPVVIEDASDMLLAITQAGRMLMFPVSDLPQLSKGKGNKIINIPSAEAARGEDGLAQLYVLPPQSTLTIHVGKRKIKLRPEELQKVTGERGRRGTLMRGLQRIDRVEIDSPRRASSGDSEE
UniProt P20083, whole entry: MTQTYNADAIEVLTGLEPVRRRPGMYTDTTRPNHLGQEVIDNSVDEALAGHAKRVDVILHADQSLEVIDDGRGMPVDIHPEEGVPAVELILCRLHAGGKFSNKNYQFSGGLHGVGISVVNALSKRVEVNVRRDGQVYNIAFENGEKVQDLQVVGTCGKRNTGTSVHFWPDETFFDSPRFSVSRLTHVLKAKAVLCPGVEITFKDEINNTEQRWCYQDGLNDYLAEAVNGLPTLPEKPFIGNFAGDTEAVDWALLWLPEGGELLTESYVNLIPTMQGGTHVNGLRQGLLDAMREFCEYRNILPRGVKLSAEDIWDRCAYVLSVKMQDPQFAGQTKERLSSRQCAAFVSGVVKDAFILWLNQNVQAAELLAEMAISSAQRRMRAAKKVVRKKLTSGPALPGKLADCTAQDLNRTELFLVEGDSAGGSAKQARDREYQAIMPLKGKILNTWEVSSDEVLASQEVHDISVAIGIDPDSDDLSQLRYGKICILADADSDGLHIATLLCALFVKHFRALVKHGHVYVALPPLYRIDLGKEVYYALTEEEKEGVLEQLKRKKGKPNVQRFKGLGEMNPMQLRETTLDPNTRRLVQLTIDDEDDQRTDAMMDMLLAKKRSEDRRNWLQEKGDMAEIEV
UniProt P0A0K8, whole entry: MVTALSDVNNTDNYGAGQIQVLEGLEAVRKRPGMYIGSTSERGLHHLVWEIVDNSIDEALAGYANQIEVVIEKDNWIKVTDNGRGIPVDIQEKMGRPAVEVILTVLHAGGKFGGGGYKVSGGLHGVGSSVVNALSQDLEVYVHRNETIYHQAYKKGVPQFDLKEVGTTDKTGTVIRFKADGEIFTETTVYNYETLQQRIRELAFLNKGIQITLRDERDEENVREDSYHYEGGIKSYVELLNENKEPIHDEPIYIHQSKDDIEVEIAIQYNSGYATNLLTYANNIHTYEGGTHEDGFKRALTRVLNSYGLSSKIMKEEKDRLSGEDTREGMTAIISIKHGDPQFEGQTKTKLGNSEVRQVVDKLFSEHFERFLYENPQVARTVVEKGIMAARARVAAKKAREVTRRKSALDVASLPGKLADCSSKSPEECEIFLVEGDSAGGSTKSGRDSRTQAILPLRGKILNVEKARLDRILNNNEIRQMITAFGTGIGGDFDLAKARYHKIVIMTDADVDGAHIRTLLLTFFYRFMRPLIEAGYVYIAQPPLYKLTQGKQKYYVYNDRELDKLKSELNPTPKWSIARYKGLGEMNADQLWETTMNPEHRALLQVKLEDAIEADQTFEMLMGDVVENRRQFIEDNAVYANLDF
UniProt P20831, whole entry: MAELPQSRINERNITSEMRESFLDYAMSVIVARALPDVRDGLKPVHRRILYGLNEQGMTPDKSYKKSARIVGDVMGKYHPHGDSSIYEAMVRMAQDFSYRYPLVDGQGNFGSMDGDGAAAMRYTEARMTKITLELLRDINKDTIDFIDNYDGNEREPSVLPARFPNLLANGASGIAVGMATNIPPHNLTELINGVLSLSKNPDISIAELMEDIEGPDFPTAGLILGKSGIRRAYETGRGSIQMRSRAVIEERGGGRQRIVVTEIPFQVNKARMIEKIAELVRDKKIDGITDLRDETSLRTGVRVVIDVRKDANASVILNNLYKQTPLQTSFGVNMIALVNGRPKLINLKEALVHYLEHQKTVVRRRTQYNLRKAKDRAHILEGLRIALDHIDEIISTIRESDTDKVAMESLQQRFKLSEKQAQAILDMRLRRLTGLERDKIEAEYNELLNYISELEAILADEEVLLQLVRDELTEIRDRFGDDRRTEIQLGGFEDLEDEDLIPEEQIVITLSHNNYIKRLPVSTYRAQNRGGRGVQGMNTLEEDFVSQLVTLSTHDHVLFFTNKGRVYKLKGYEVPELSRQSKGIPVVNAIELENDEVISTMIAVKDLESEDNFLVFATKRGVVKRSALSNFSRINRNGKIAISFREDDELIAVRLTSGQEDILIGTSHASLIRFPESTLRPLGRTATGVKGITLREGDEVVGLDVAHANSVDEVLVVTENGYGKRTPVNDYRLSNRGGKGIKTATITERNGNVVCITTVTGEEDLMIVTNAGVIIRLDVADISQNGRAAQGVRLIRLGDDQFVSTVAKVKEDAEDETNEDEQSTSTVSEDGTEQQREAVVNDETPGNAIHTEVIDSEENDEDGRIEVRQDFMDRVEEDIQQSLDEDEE
UniProt P0C1S7, whole entry: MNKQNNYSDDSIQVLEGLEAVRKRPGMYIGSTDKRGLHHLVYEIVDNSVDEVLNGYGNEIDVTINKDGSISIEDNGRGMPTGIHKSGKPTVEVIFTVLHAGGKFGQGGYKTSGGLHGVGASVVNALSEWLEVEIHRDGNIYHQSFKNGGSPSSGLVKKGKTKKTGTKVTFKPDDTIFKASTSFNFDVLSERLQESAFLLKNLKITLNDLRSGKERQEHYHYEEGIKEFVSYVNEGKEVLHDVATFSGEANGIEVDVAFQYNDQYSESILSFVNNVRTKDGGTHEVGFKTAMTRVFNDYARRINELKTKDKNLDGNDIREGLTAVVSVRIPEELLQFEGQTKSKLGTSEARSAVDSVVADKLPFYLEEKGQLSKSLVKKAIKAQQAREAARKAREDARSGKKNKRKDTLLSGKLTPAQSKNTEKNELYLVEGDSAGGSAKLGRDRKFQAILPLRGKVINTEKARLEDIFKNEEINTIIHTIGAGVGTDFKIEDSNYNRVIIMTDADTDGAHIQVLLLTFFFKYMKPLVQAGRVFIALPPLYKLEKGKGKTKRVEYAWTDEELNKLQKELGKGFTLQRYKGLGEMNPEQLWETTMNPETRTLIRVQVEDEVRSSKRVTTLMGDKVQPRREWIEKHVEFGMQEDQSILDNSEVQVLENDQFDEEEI
UniProt P0C1U9, whole entry: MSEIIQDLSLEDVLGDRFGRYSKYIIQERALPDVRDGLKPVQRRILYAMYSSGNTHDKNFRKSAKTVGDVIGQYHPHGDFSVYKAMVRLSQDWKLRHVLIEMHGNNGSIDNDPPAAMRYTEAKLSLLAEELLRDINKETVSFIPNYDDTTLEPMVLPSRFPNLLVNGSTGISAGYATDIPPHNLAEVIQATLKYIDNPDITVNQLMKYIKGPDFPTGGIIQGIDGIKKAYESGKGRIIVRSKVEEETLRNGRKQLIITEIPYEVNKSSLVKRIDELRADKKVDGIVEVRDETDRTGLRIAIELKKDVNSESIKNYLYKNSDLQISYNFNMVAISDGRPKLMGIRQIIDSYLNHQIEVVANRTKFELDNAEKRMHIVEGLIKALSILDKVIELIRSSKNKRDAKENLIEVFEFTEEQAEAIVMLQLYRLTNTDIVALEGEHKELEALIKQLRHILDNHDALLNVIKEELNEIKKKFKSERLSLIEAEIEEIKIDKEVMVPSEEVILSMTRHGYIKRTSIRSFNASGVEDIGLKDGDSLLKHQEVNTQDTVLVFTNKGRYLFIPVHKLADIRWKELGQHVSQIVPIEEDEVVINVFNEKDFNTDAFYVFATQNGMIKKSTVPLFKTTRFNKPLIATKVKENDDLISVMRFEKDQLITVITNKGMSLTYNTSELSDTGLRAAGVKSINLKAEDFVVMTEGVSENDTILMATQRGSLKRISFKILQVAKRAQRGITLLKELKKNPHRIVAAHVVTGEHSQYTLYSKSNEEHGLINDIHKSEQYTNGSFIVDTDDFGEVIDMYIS

Columns and labels:
[1] = target: E. coli DNA gyrase (Escherichia coli, UniProt P0AES4+P0AES6); experiment: DNA gyrase supercoiling assay (E. coli); type: biochemical; settings: for % inhibition DNA gyrase: n/a = not active
[2] = target: E. coli Topoisomerase IV (Escherichia coli, UniProt P0AFI2+P20083); experiment: Topoisomerase IV decatenation assay (E. coli); type: biochemical; settings: for % inhibition Topo IV: n/a = not active
[3] = target: S. aureus DNA gyrase (Staphylococcus aureus, UniProt P0A0K8+P20831); experiment: DNA gyrase supercoiling assay (S. aureus); settings: for % inhibition DNA gyrase: n/a = not active
[4] = target: S. aureus Topoisomerase IV (Staphylococcus aureus, UniProt P0C1S7+P0C1U9); experiment: Topoisomerase IV decatenation assay (S. aureus); type: biochemical; settings: for % inhibition Topo IV: n/a = not active; for IC50: read-out: IC50 Topo IV, concentration-response curve, eight half-log concentrations 0.1 to 300 μM
Protocol: The above compounds were tested for the inhibition of the enzyme DNA gyrase in a gyrase supercoiling assay and for the inhibition of the enzyme topoisomerase IV in a decatenation assay, in both Gram positive and Gram negative bacteria, according to the following methods.
Both the assays were carried out according to a set-up method modified from the article to Blanche F, et al. “Differential Behaviors of Staphylococcus aureus and Escherichia coli Type II DNA Topoisomerases”, Antimicrob. Agents Chemother., 1996, Vol. 40, No. 12 p. 2714-2720.
The compounds were screened at single concentration (200, 100 or 50 μM), in duplicate.
S. aureus and E. coli Topoisomerase IV decatenation kits (Inspiralis, UK) were used. A master mix with a total volume sufficient for the number of reactions to perform was prepared with the following reagents: 5× assay buffer (50 mM HEPES-KOH (pH 7.6), 100 mM potassium glutamate, 10 mM magnesium acetate, 10 mM DTT, 1 mM ATP, 50 μg/ml albumin), kDNA substrate (200 ng/reaction), RNase-DNase free water. Aliquots of this mix were dispensed in each tube, then 10× compound stock solutions or vehicle control (DMSO), were added in each reaction tube.
Reaction was started with Topoisomerase IV enzyme (0.5 U/reaction) addition.
A sample added with an equal volume of dilution buffer was used as negative control (without enzyme).
The reaction tubes were gentle vortexed and incubated 30 minutes at 37° C. Each reaction was stopped by adding 30 μl of Stop Buffer and 30 μl of chloroform/isoamyl alcohol (24/1), briefly vortexed for 5-10 seconds and centrifuged at 20000×g for 2 minutes. Samples taken from the upper phase were loaded into 1% agarose gel and subjected to electrophoresis for 1 hour at 80V constant voltage in TAE (40 mM Tris-acetate, 2 mM EDTA).
Data acquisition and analysis. Due to the high molecular mass, kDNA could not enter an agarose gel under normal electrophoresis conditions, but remained in the wells. In the presence of Topo IV topoisomerase mini-circles (2.5 Kb) were released from kDNA by decatenation and were quickly and easily resolved in the gel at relatively high voltages.
Bands were visualized by ethidium bromide staining (dil 1:20000) for 30 minutes followed by destaining in distilled water for 10 minutes.
For single concentration screening assay, in order to evaluate the compounds activity on the enzymes, the bands of decatenated DNAs in the gel were photographed by a digital imaging system ImageQuant LAS 4000 (GE Healthcare) according to manufacturer's instructions.
The fluorescent intensity of each band was analyzed by ImageQuant TL software and it was expressed as volume (volume of the uncalibrated quantity of material in the image feature after subtraction of the background intensity by using rolling ball method).
Each band intensity was compared, as percentage, to vehicle sample band intensity, which served as positive control, on the same gel.
Inhibitory activity was expressed as percent of inhibition versus the positive control.
The supercoiled or decatenated DNA bands obtained as described in Example 1 were analysed as follows.
Bands were analyzed by gel documentation equipment (Syngene, Cambridge, UK) and quantitated using Syngene Gene Tools software. Raw gel data (fluorescent band volumes) collected from Syngene, GeneTools gel analysis software were converted to a percentage of the 100% control (the fully supercoiled or decatenated DNA band). […] The IC50 data were calculated by using the global curve fit non-linear regression tool by selecting the Single, 2 Parameter fit function from the Exponential Decay equation category.

[5] = conc. 100 μM, tested form: hydrochloride
[6] = conc. 50 μM, tested form: hydrochloride
[7] = read-out: IC50 DNA gyrase, concentration-response curve, eight half-log concentrations 0.1 to 300 μM
[8] = read-out: IC50 Topo IV, concentration-response curve, eight half-log concentrations 0.1 to 300 μM
[9] = read-out: IC50 DNA gyrase, concentration-response curve, eight half-log concentrations 0.1 to 300 μM, tested form: hydrochloride
[10] = read-out: IC50 Topo IV, concentration-response curve, eight half-log concentrations 0.1 to 300 μM, tested form: hydrochloride

## N#Cc1ccc2ccnc(N3CCN(CCCNc4cc(=O)oc5ccccc45)CC3)c2c1
[1]; [5]
  % inhibition DNA gyrase: 100%
[2]; [5]
  % inhibition Topo IV: 96%
[3]; [5]
  % inhibition DNA gyrase: 81%

## O=c1cc(NCCN2CCN(c3nccc4ccccc34)CC2)c2ccccc2o1
[1]; [5]
  % inhibition DNA gyrase: 96%
[2]; [5]
  % inhibition Topo IV: 71%
[3]; [5]
  % inhibition DNA gyrase: 86%

## N#Cc1cc2ccccc2c(N2CCN(CCCNc3cc(=O)oc4ccccc34)CC2)n1
[1]; [6]
  % inhibition DNA gyrase: 92%
[2]; [6]
  % inhibition Topo IV: 53%
[3]; [6]
  % inhibition DNA gyrase: 81%

## O=c1cc(NCC(O)CN2CCN(c3nccc4ccccc34)CC2)c2ccccc2o1 (single isomer, unassigned) [Compound 93]
[1]; conc. 50 μM
  % inhibition DNA gyrase: 100%
[1]; [7]
  IC50: 2.2 µM
[2]; conc. 50 μM
  % inhibition Topo IV: 100%
[2]; [8]
  IC50: 3.8 µM
[3]; conc. 50 μM
  % inhibition DNA gyrase: 95%
[3]; [7]
  IC50: 5.2 µM
[4]; conc. 50 μM
  % inhibition Topo IV: 63%
[4]
  IC50: 6.9 µM

## O=c1cc(NCCCN2CCN(c3nccc4ccc(F)cc34)CC2)c2c(o1)CCSC2
[1]; [6]
  % inhibition DNA gyrase: 96%
[2]; [6]
  % inhibition Topo IV: 100%
[3]; [6]
  % inhibition DNA gyrase: 95%
[4]; [6]
  % inhibition Topo IV: 86%

## O=c1cc(NCCCN2CCN(c3nccc4ccc(F)cc34)CC2)c2c(o1)CCS(=O)(=O)C2
[1]; [6]
  % inhibition DNA gyrase: 89%
[2]; [6]
  % inhibition Topo IV: 70%
[3]; [6]
  % inhibition DNA gyrase: 76%

## O=c1nc(NC[C@@H](O)CN2CCN(c3nccc4ccc(F)cc34)CC2)c2ccccc2o1
[1]; conc. 50 μM
  % inhibition DNA gyrase: 100%
[2]; conc. 50 μM
  % inhibition Topo IV: 100%
[3]; conc. 50 μM
  % inhibition DNA gyrase: 100%
[4]; conc. 50 μM
  % inhibition Topo IV: 100%

## Cc1cccc2ccnc(N3CCN(CCCNc4cc(=O)oc5ccccc45)CC3)c12
[1]; [6]
  % inhibition DNA gyrase: 100%
[1]; [9]
  IC50: 1 µM
[2]; [6]
  % inhibition Topo IV: 76%
[2]; [10]
  IC50: 1.8 µM
[3]; [6]
  % inhibition DNA gyrase: 100%
[3]; [9]
  IC50: 4.8 µM

## CN(C)c1ccc2ccnc(N3CCN(CCCNc4cc(=O)oc5ccccc45)CC3)c2c1
[1]; [6]
  % inhibition DNA gyrase: 93%
[2]; [6]
  % inhibition Topo IV: 90%
[3]; [6]
  % inhibition DNA gyrase: 90%

## O=c1cc(NC[C@@H](O)CN2CCN(c3nccc4ccc(F)cc34)CC2)c2ccccc2o1
[1]; conc. 50 μM
  % inhibition DNA gyrase: 98%
[2]; conc. 50 μM
  % inhibition Topo IV: 100%
[3]; conc. 50 μM
  % inhibition DNA gyrase: 100%
[4]; conc. 50 μM
  % inhibition Topo IV: 100%

## COc1cc2ccccc2c(N2CCN(CCCNc3cc(=O)oc4ccccc34)CC2)n1
[1]; [5]
  % inhibition DNA gyrase: 85%
[3]; [5]
  % inhibition DNA gyrase: 93%
[4]; [5]
  % inhibition Topo IV: 49%

## O=c1cc(NCC(O)CN2CCN(c3nccc4ccccc34)CC2)c2ccccc2o1 (single isomer, unassigned) [Compound 94]
[1]; conc. 50 μM
  % inhibition DNA gyrase: 100%
[1]; [7]
  IC50: 4.8 µM
[2]; conc. 50 μM
  % inhibition Topo IV: 91%
[2]; [8]
  IC50: 3 µM
[3]; conc. 50 μM
  % inhibition DNA gyrase: 100%
[3]; [7]
  IC50: 4.2 µM
[4]; conc. 50 μM
  % inhibition Topo IV: 88%
[4]
  IC50: 13.8 µM

## O=c1cc(N[C@H]2CC[C@@H](N3CCN(c4nccc5ccccc45)CC3)C2)c2ccccc2o1 (relative stereo)
[1]; conc. 50 μM
  % inhibition DNA gyrase: 93%
[1]; [7]
  IC50: 6.8 µM
[2]; conc. 50 μM
  % inhibition Topo IV: 73%
[2]; [8]
  IC50: 3.8 µM
[3]; conc. 50 μM
  % inhibition DNA gyrase: 85%
[3]; [7]
  IC50: 13.9 µM

## O=c1nc(NCCCN2CCN(c3nccc4ccccc34)CC2)c2ccccc2o1
[1]; [5]
  % inhibition DNA gyrase: 93%
[1]; [9]
  IC50: 20.4 µM
[2]; [5]
  % inhibition Topo IV: 94%
[2]; [10]
  IC50: 16.5 µM
[3]; [5]
  % inhibition DNA gyrase: 93%
[3]; [9]
  IC50: 5.2 µM

## O=c1nc(NC[C@H](O)CN2CCN(c3nccc4ccc(F)cc34)CC2)c2ccccc2o1
[1]; conc. 50 μM
  % inhibition DNA gyrase: 100%
[1]; [7]
  IC50: 2.7 µM
[2]; conc. 50 μM
  % inhibition Topo IV: 100%
[2]; [8]
  IC50: 2.2 µM
[3]; conc. 50 μM
  % inhibition DNA gyrase: 100%
[3]; [7]
  IC50: 1 µM
[4]; conc. 50 μM
  % inhibition Topo IV: 68%
[4]
  IC50: 0.6 µM

## O=c1cc(N[C@@H]2CC[C@@H](N3CCN(c4nccc5ccccc45)CC3)C2)c2ccccc2o1 (relative stereo)
[1]; conc. 50 μM
  % inhibition DNA gyrase: 89%
[1]; [7]
  IC50: 19.5 µM
[2]; conc. 50 μM
  % inhibition Topo IV: 65%
[2]; [8]
  IC50: 6.8 µM
[3]; conc. 50 μM
  % inhibition DNA gyrase: 81%
[3]; [7]
  IC50: 6.3 µM

## O=c1cc(NC[C@H](O)CN2CCN(c3nccc4ccc(F)cc34)CC2)c2ccccc2o1
[1]; conc. 50 μM
  % inhibition DNA gyrase: 100%
[2]; conc. 50 μM
  % inhibition Topo IV: 100%
[3]; conc. 50 μM
  % inhibition DNA gyrase: 100%
[4]; conc. 50 μM
  % inhibition Topo IV: 100%

## O=c1cc(NCCCN2CCN(c3nc(F)cc4ccccc34)CC2)c2ccccc2o1
[1]; [6]
  % inhibition DNA gyrase: 99%
[2]; [6]
  % inhibition Topo IV: 95%
[3]; [6]
  % inhibition DNA gyrase: 95%
[4]; [6]
  % inhibition Topo IV: 67%

## O=c1cc(NCCCN2CCN(c3nccc4ccccc34)CC2)c2cc(Cl)ccc2o1
[1]; [6]
  % inhibition DNA gyrase: 100%
[2]; [6]
  % inhibition Topo IV: 100%
[3]; [6]
  % inhibition DNA gyrase: 87%
[4]; [6]
  % inhibition Topo IV: 92%

## O=C1C=C(NCCCN2CCN(c3nccc4ccccc34)CC2)c2ccccc21
[1]; conc. 100 μM
  % inhibition DNA gyrase: 94%
[1]; [7]
  IC50: 12 µM
[2]; conc. 100 μM
  % inhibition Topo IV: 51%
[2]; [8]
  IC50: 51 µM
[3]; conc. 100 μM
  % inhibition DNA gyrase: 88%

## O=c1cc(NCCCN2CCN(c3nccc4ccccc34)CC2)c2cc(F)ccc2o1
[1]; [6]
  % inhibition DNA gyrase: 100%
[2]; [6]
  % inhibition Topo IV: 100%
[3]; [6]
  % inhibition DNA gyrase: 92%
[4]; [6]
  % inhibition Topo IV: 89%

## Cc1cc2ccccc2c(N2CCN(CCCNc3cc(=O)oc4ccccc34)CC2)n1
[1]; [5]
  % inhibition DNA gyrase: 96%
[2]; [5]
  % inhibition Topo IV: 79%
[3]; [5]
  % inhibition DNA gyrase: 70%

## O=c1cc(NCCCN2CCN(c3nccc4ccccc34)CC2)c2c(o1)CCCC2
[1]; [6]
  % inhibition DNA gyrase: 96%
[2]; [6]
  % inhibition Topo IV: 64%
[3]; [6]
  % inhibition DNA gyrase: 95%
[4]; [6]
  % inhibition Topo IV: 53%

Where two headings read alike, the source gives them in different places.
